System: Human lice, Pediculus humanus
Conditions: Table 7

OCCN(CCO)CCO
Number of lice Moribund (single ingredients in water vehicle): 4 | Number of lice Killed (single ingredients in water vehicle (Dehyquart ACA 1.00%, Nettle Extract 1.00%, Thyme Extract 1.00%, Nipasept 0.15%, Triethanolamine 0.06%), 19-21 lice): 5 | Mortality % Total (single ingredients in water vehicle, Water 20): 43% | Number of eggs (single ingredients in water vehicle, eggs laid, Water 21): 16

Reference: US20050053680A1, “Pediculicidal compound” (priority 2002, published 2005)
